Anti-infective test results gathered from many reports (values: NIAID ChemDB through PubChem).

Common to all: whole-cell or culture tests; species: HIV-1; endpoint: EC50

ECn is the concentration giving n% inhibition of infection, replication or growth. Conditions beyond the fields shown may differ between rows. Blank or dashed fields: not listed here.

smiles | read by | strain | cell line | changes | value
O=c1ccc(-c2ccc(C(F)(F)F)cc2)c(O)c(O)c1O | RT activity | LAI | CEM + CEM-SS |  | 5 µM
CCOP(=O)(/C=C/n1cnc2c(N)ncnc21)OCC |  | IIIB | CEM + CEM-SS |  | >200 µM
COc1ccc2c(c1)N(C(=O)OC(C)C)[C@@H](CSC)C(=S)N2 | p24 | D34 | PBL |  | 0.002 µM
Cc1ccc(-n2c(C)nnc2SCC(=O)Nc2ccc(S(N)(=O)=O)cc2Cl)c2ccccc12 |  |  | HeLa | Y188L | 0.02 µM
CCN1C(=O)N(Cc2ccccc2)S(=O)(=O)c2cscc21 | syncytia |  | CEM | RT-K103N | >310.2 µM
CC(=O)Nc1nc2c(ncn2/C=C\P(=O)(O)O)c(=O)[nH]1 |  | IIIB | CEM + CEM-SS |  | >200 µM
OCCc1ccc(O)c(O)c1 | p24 / ELISA | NL4-3 | MT-2 |  | 35.05 µM
CCN1C(=O)N(Cc2cccc(Cl)c2)S(=O)(=O)c2cscc21 | syncytia |  | CEM | RT-L100I | 3.6 µM
Cc1cn([C@H]2C[C@@](F)(CC(F)(F)P(=O)(O)O)CO2)c(=O)[nH]c1=O | RT activity |  | PBMC |  | >100 µM
O=c1ccc(-c2cccc(C(F)(F)F)c2)c(O)c(O)c1O | cytopathic effect / MTT | IIIB | MT-4 |  | >3 µM
C/C(=C(/CCOC(=O)C(C)C)SS/C(CCOC(=O)C(C)C)=C(\C)N(C=O)Cc1cnc(C)nc1N)N(C=O)Cc1cnc(C)nc1N | p24 | MN | H9/HIV-1(MN) + H9 |  | <50 µM
O=c1ccn([C@H]2C[C@@](F)(CC(F)(F)P(=O)(O)O)CO2)c(=O)[nH]1 | RT activity |  | PBMC |  | >100 µM
CCOP(=O)(/C=C/n1cc(CO)c(=O)[nH]c1=O)OCC |  | IIIB | CEM + CEM-SS |  | >200 µM
CC(=O)N1CCC(C(=O)N(CCCN2CCC(Cc3ccc(C(N)=O)cc3)CC2)c2ccc(C)c(Cl)c2)CC1 | luciferase | R5X4 subtype B_3 recombinant | U87 (CD4+ CXCR4+) + U87 |  | >19 µM
Cc1cc(C)c2ccc(C)c(-n3c(SCC(=O)Nc4ccc(S(N)(=O)=O)cc4Cl)nnc3C(F)(F)F)c2n1 |  |  | HeLa |  | 0.001 µM
CCOP(=O)(OCC)C(F)(F)C[C@@]1(F)CO[C@@H](n2ccc(N)nc2=O)C1 | RT activity |  | PBMC |  | >100 µM
N#CCN1C(=O)N(Cc2cccc(F)c2)S(=O)(=O)c2cscc21 | syncytia |  | CEM | RT-E138K | 2.9 µM
O=Nc1c(-c2c(O)[nH]c3ccccc23)[nH]c2ccccc12 | p24 |  | U1 |  | <4 µM
CC(C)Nc1cccnc1N1CCN(C(=O)c2cc3cc(NS(C)(=O)=O)ccc3[nH]2)CC1 | p24 |  | PBMC | RT-E89G | 0.04 µM
C=C(C)OC(=O)N1c2cc(Cl)ccc2NC(=S)C1(C)C | p24 | D117III | Macrophage + Monocytes/macrophages |  | 0.008 µM
CCOP(=O)(/C=C/n1cc(Br)c(=O)[nH]c1=O)OCC |  | IIIB | CEM + CEM-SS |  | >200 µM
CC(=O)c1cccc(C(=O)COCCCCCCCCOP(=O)(OC[C@H]2OC(O)[C@H](O)[C@@H](O)[C@@H]2O)OC[C@H]2O[C@@H](n3cc(C)c(=O)[nH]c3=O)C[C@@H]2N=[N+]=[N-])n1 | RT activity | LAI | CEM + CEM-4 |  | 2 µM
Cc1ccc(NC(=O)CSc2nnc(C)n2-c2c(C)ccc3ccccc23)c(Cl)c1 |  |  | HeLa | Y188L | 0.2 µM
S=C(NCCc1ccc(Br)s1)Nc1ccc(Br)cn1 |  | IIIB | PBMC |  | 0.05 µM
Cc1ccc(NC(=O)CSc2nnc(C)n2-c2c(C)cc(C)c3ccccc23)c(Cl)c1 |  |  | HeLa | Y188L | 0.089 µM
CC(C)Nc1cccnc1N1CCN(C(=O)c2cc3cc(NS(C)(=O)=O)ccc3[nH]2)CC1 |  | IIIB | PBMC |  | 0.01 µM
O=c1ccc(-c2ccsc2)c(O)c(O)c1O | cytopathic effect / MTT | IIIB | MT-4 |  | >3 µM
Cc1cn([C@H]2C[C@H](N=[N+]=[N-])[C@@H](CO)O2)c(=O)[nH]c1=O | p24 | NL4-3 | MT-2 | PR-A71T | 0.004 µM
O=C1N(Cc2ccccc2)c2cscc2S(=O)(=O)N1Cc1ccccc1 | syncytia |  | CEM | RT-V106A | ≥10.4 µM
CCOP(=O)(OCC)C(F)(F)C[C@@]1(F)CO[C@@H](n2cnc3c(Cl)nc(N)nc32)C1 | RT activity |  | PBMC |  | 48.6 µM
Cc1cn([C@H]2C[C@H](N=[N+]=[N-])[C@@H](CO)O2)c(=O)[nH]c1=O | RT activity | LAI | CEM + CEM-SS |  | 0.004 µM
Cc1cc(C)c2ccc(C)c(-n3c(C)nnc3SCC(=O)Nc3ccc(S(N)(=O)=O)cc3Cl)c2n1 |  |  | HeLa | Y188L | 0.011 µM
CC(=O)Oc1cc(OC(C)=O)c(OC(C)=O)c(=O)c(OC(C)=O)c1 | cytopathic effect / MTT | IIIB | MT-4 |  | >6 µM
S=C(NCCc1ccc(Br)s1)Nc1nccs1 |  | IIIB | PBMC |  | 0.31 µM
Clc1nc(Cl)c2[nH]cnc2n1 | p24 |  | CD4+HELA + HeLa | RT-M184V | 1 µM
S=C(NCCc1ccc(Br)s1)Nc1ccccn1 |  | IIIB | PBMC |  | 0.015 µM
CC(C)=CCN1Cc2cccc3[nH]c(=S)n(c23)C[C@@H]1C | p24 |  | PBMC | RT-E89G | 0.18 µM
Cc1ccc2ccccc2c1-n1c(C)nnc1SCC(=O)Nc1ccccc1Br |  |  | HeLa | Y188L | 0.724 µM
Nc1ncnc2c1ncn2CCOCP(=O)(O)O | RT activity |  | PBMC |  | 0.31 µM
O=c1ccn(/C=C/P(=O)(O)O)c(=O)[nH]1 |  | IIIB | CEM + CEM-SS |  | >200 µM
Cc1cn([C@H]2C[C@H](N=[N+]=[N-])[C@@H](COP(=O)(O)OCCCCCCCCN(C)CCN(C)C)O2)c(=O)[nH]c1=O | RT activity | LAI | CEM + CEM-4 |  | 0.2 µM
CC(=O)Nc1ccc(OC(=O)c2ccc(N=C(N)N)cc2)cc1 | XTT / p24 |  | MT-4 |  | 50 µg/mL

The last 4 rows once more:

{"smiles": "Nc1ncnc2c1ncn2CCOCP(=O)(O)O", "read by": "RT activity", "cell line": "PBMC", "value": "0.31 µM"}
{"smiles": "O=c1ccn(/C=C/P(=O)(O)O)c(=O)[nH]1", "strain": "IIIB", "cell line": "CEM + CEM-SS", "value": ">200 µM"}
{"smiles": "Cc1cn([C@H]2C[C@H](N=[N+]=[N-])[C@@H](COP(=O)(O)OCCCCCCCCN(C)CCN(C)C)O2)c(=O)[nH]c1=O", "read by": "RT activity", "strain": "LAI", "cell line": "CEM + CEM-4", "value": "0.2 µM"}
{"smiles": "CC(=O)Nc1ccc(OC(=O)c2ccc(N=C(N)N)cc2)cc1", "read by": "XTT / p24", "cell line": "MT-4", "value": "50 µg/mL"}